{
  "sequences": {"note": "Amino acid sequences for entries named in this document (tags omitted). Residues count along the entry.", "UniProt Q8IDJ8, 77-583 limits assumed": "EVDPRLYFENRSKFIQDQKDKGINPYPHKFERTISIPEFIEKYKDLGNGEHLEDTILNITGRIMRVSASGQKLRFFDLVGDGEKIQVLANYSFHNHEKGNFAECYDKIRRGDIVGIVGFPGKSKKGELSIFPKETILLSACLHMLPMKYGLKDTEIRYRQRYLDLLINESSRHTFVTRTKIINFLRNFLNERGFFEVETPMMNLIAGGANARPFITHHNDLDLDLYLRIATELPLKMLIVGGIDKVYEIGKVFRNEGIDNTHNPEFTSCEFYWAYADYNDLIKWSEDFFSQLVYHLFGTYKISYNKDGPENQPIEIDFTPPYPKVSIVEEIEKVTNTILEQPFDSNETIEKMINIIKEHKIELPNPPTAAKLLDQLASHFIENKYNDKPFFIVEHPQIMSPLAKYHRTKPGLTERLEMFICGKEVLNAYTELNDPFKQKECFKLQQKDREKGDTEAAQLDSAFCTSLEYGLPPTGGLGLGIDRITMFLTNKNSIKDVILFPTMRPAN"},
  "source": "paper PMC11189516",
  "about": "“Structure-guided conversion from an anaplastic lymphoma kinase inhibitor into Plasmodium lysyl-tRNA synthetase selective inhibitors” (Communications Biology, 2024)",
  "key": {"PfLysRS [1]": {"molecular_target": "T1, PfLysRS (Plasmodium falciparum, UniProt Q8IDJ8)", "assay": "Thermal shift assay", "format": "binding", "protocol": "PfLysRS protein was prepared at 10 μM concentration in a buffer containing 20 mM Tris pH 8.0, 200 mM NaCl, 500 μM L-lysine, and 200 μM Compound. Aliquots (18 µL) were added to a 96-well PCR plate and incubated at ambient temperature for 10 min. SYPRO Orange dye (Sigma) was diluted in the assay buffer containing 20 mM Tris pH 8.0 and 200 mM NaCl to a 40× concentration, and 2 µL of the 40× dye solution was added to the PCR plate to bring the final assay volume to 20 µL. After complete mixing, the final solutions were heated from 25 to 90 °C at a rate of 0.015 °C per sec, and fluorescence signals were monitored by QuantStudio 3 (Applied Biosystems by Thermo Fisher Scientific)."}, "PfLysRS [2]": {"molecular_target": "T1, PfLysRS", "assay": "ATP hydrolysis assay (Kinase-Glo) on PfLysRS", "format": "biochemical", "protocol": "The ATP hydrolysis assays were based on Kinase-Glo luminescent Kit (Promega). The experiment was carried out in Corning 384-well white flat bottom microplates. The buffer in the reaction contains 25 mM Hepes pH 7.4, 140 mM NaCl, 40 mM MgCl2, 30 mM KCl, 1 mM TCEP, 0.1 mg·mL^−1 BSA, and 0.004% Tween-20. The compounds were diluted to different concentrations with a 5-fold gradient.\nFor LysRS assays, DMSO was added into negative control wells and L-lysine was removed in positive control wells. 100 nM LysRS in 2.5 μL Hepes buffer was mixed with compounds and incubated for 10 min. Then 5 μL substrate mixture (2 μM ATP, 10 μM L-lysine and 31 nM pyrophosphatase) was added to start the reaction at 37 °C and incubated for 6 h.\nWhen the reaction reaches the planned time, 10 μL diluted Kinase-Glo reagent (1/50 diluted with a buffer containing 50 mM Tris pH 7.5 and 5% glycerol) was added and incubated for 15 min. Luminescence was measured on the Magellan plate reader (Tecan) and nonlinear regression was performed with Prism (GraphPad)."}, "[3]": {"details": "+Lysine, sheet Figure 6B, listed as 36K4'"}},
  "note": "“And” between values parts separate entries of the source, which are not always exact repeats. Identical values can stand only once.",
  "data": [
    {"smiles": "COc1ccc(OC)c(Nc2ncnc(Nc3ccccc3S(=O)(=O)CCCCNC(=O)[C@@H](N)CCCCN)n2)c1", "values": [
      {"measurement": "Tm of PfLysRS, Average", "setting": "PfLysRS [1]; +Lysine, sheet Figure 6B", "result": 57.936},
      {"measurement": "△Tm of PfLysRS", "setting": "PfLysRS [1]; +Lysine, sheet Figure 6B", "result": 12.916},
      {"measurement": "Tm of PfLysRS, Average", "setting": "PfLysRS [1]; [3]", "result": 56.643},
      {"measurement": "Tm of PfLysRS, single repeat", "setting": "PfLysRS [1]; [3]", "result": "56.628 and 56.751 and 56.566"},
      {"measurement": "△Tm of PfLysRS", "setting": "PfLysRS [1]; [3]", "result": 11.623},
      {"measurement": "ΔTm of PfLysRS", "setting": "PfLysRS [1]; in the presence of L-lysine", "result": 12.9, "unit": "°C"},
      {"measurement": "IC50 against PfLysRS", "setting": "PfLysRS [2]", "result": 298, "unit": "nM"},
      {"measurement": "IC50", "setting": "PfLysRS [2]; read-out: IC50 against PfLysRS", "result": 377, "unit": "nM"}
    ]}
  ]
}
